# Results deposited as PubChem BioAssay AID624099 (ICCB-Longwood, 2012).
# Purpose: 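Host factors E2 relies on to silence an HPV18 LCR reporter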 (primary screen)
# System: human C33A cervical carcinoma cells (HPV-negative) stably expressing BPV1 E2 and an HPV18 LCR luciferase reporter
# Reagent: siRNA pool against human genes, 40 nM
# Time to read-out: 72 h
# Measured: 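HPV18 LCR reporter light per well, converted to plate-wise z-scores that exclude control wells, and averaged over triplicate plates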
# Direction: mean z-score and z-score: higher = stronger reporter signal, weaker E2 silencing
# Rule for the call: 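Hit if mean z-score reaches 2 and two or more of three replicate z-scores also reach 2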
# The whole screen tested about 21,000 reagents; below is a part drawn at random. 497 of them (2.4%) were called active. 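Higher z means weaker E2 silencing; only reporter increases were scored, and knock-downs that hurt cell survival may mask genuine repressor factors.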 A number with no mark means an inactive call. Reagents against one gene are numbered here. Reagent sequences are not shown.
gene,reagent no.,mean z-score,"z-score, replicate A","z-score, replicate B","z-score, replicate C"
TFDP1 (transcription factor Dp-1),1,-0.19,0.03,-0.24,-0.36
ZBTB7A (zinc finger and BTB domain containing 7A),1,-0.2,-0.26,-0.08,-0.26
ZCWPW2 (zinc finger CW-type and PWWP domain containing 2),1,3.46 (active),2.72,3.55,4.12
ALOX5AP (arachidonate 5-lipoxygenase activating protein),1,-0.72,-0.56,-1.09,-0.51
SLC16A7,1,0.99,0.9,1.01,1.07
TRIM17 (tripartite motif containing 17),1,-0.95,-0.91,-0.79,-1.17
SPAG7 (sperm associated antigen 7),1,0.41,0.31,0.31,0.61
LINC02591 (long independently transcribed non-coding RNA 2591),1,-0.12,0.3,-0.3,-0.36
LINC02591 (long independently transcribed non-coding RNA 2591),2,-0.86,-0.94,-0.57,-1.06
PARD3B (par-3 family cell polarity regulator beta),1,-0.05,-0.28,-0.05,0.18
C6orf52 (chromosome 6 open reading frame 52),1,-0.05,0,-0.26,0.12
"PSMC4 (proteasome 26S subunit, ATPase 4)",1,-1.33,-1.31,-1.22,-1.47
KCNJ5 (potassium inwardly rectifying channel subfamily J member 5),1,0,0.11,-0.3,0.2
CNOT7 (CCR4-NOT transcription complex subunit 7),1,-0.23,-0.08,-0.35,-0.25
"NAT8B (N-acetyltransferase 8B (putative, gene/pseudogene))",1,-0.09,0.45,-0.73,0.02
GADD45B (growth arrest and DNA damage inducible beta),1,0.93,0.85,0.79,1.16
FANCA (FA complementation group A),1,1.22,1.04,1.31,1.32
PTF1A (pancreas associated transcription factor 1a),1,1.59,1.37,1.64,1.75
ZNF295-AS1 (ZNF295 antisense RNA 1),1,0.6,0.82,0.51,0.47
SSBP3 (single stranded DNA binding protein 3),1,-1.11,-1.27,-1.07,-0.98
GAPDHP72 (glyceraldehyde-3-phosphate dehydrogenase pseudogene 72),1,-0.28,-0.29,-0.18,-0.37
HSF2BP (heat shock transcription factor 2 binding protein),1,1.11,1.21,0.87,1.24
POT1 (protection of telomeres 1),1,0.44,0.54,0.5,0.27
DUSP21 (dual specificity phosphatase 21),1,2.04 (active),1.96,2.03,2.14
LINC01104 (long independently transcribed non-coding RNA 1104),1,-0.33,-0.33,-0.41,-0.26
ZNF541 (zinc finger protein 541),1,1.03,0.8,1.23,1.07
PSKH2 (protein serine kinase H2),1,-1.62,-1.55,-1.44,-1.86
RENBP (renin binding protein),1,0.08,-0.04,0.09,0.2
RBFOX3 (RNA binding fox-1 homolog 3),1,-0.27,0.22,-0.15,-0.87
FDXR (ferredoxin reductase),1,-1.12,-1.38,-1.22,-0.76
HOXB2 (homeobox B2),1,0.48,0.26,0.43,0.74
H3C14 (H3 clustered histone 14),1,-0.57,-0.57,-0.57,-0.58
MYEF2 (myelin expression factor 2),1,0.27,-0.21,1.13,-0.1
FBXO21 (F-box protein 21),1,0.58,0.66,0.47,0.6
ADCY10 (adenylate cyclase 10),1,-0.4,-0.19,-0.29,-0.73
TAF1A,1,0.63,0.62,0.8,0.47
EID2 (EP300 interacting inhibitor of differentiation 2),1,-1.11,-0.93,-0.92,-1.47
KRTAP4-12 (keratin associated protein 4-12),1,-0.23,-0.62,0.03,-0.09
"INGX (inhibitor of growth family, X-linked (pseudogene))",1,-0.97,-0.83,-0.9,-1.17
WASHC3 (WASH complex subunit 3),1,-0.39,-0.76,-0.17,-0.24
RNF32 (ring finger protein 32),1,0.8,0.7,0.93,0.76
FRRS1 (ferric chelate reductase 1),1,-1.86,-1.82,-1.71,-2.05
LINC01551 (long independently transcribed non-coding RNA 1551),1,1.8,1.55,1.86,1.98
PPIP5K1 (diphosphoinositol pentakisphosphate kinase 1),1,0.75,0.98,0.56,0.72
TGS1 (trimethylguanosine synthase 1),1,-0.6,-0.53,-0.45,-0.83
HSPA13 (heat shock protein family A (Hsp70) member 13),1,-0.72,-0.81,-0.74,-0.6
FBXO41 (F-box protein 41),1,-0.88,-0.92,-0.91,-0.8
ATG3 (autophagy related 3),1,0.7,0.55,0.8,0.76
SPDL1 (spindle apparatus coiled-coil protein 1),1,-0.53,-0.59,-0.69,-0.3
CKB (creatine kinase B),1,0.49,0.51,0.2,0.76
RPL31P4 (ribosomal protein L31 pseudogene 4),1,0.2,0.18,0.31,0.1
PHF21B (PHD finger protein 21B),1,0.6,0.75,0.53,0.5
"PSMD11 (proteasome 26S subunit, non-ATPase 11)",1,-0.49,-0.88,-0.17,-0.42
IFT122 (intraflagellar transport 122),1,1.33,1.58,1.39,1.02
GDAP1 (ganglioside induced differentiation associated protein 1),1,0.92,0.79,1.09,0.88
"ACAP1 (ArfGAP with coiled-coil, ankyrin repeat and PH domains 1)",1,-1.34,-1.27,-1.54,-1.2
WFDC11 (WAP four-disulfide core domain 11),1,-0.19,0.22,-0.44,-0.34

5 of these entries in another layout:
{"gene": "RPL31P4 (ribosomal protein L31 pseudogene 4)", "reagent no.": 1, "mean z-score": 0.2, "z-score, replicate A": 0.18, "z-score, replicate B": 0.31, "z-score, replicate C": 0.1}
{"gene": "PHF21B (PHD finger protein 21B)", "reagent no.": 1, "mean z-score": 0.6, "z-score, replicate A": 0.75, "z-score, replicate B": 0.53, "z-score, replicate C": 0.5}
{"gene": "PSMD11 (proteasome 26S subunit, non-ATPase 11)", "reagent no.": 1, "mean z-score": -0.49, "z-score, replicate A": -0.88, "z-score, replicate B": -0.17, "z-score, replicate C": -0.42}
{"gene": "IFT122 (intraflagellar transport 122)", "reagent no.": 1, "mean z-score": 1.33, "z-score, replicate A": 1.58, "z-score, replicate B": 1.39, "z-score, replicate C": 1.02}
{"gene": "GDAP1 (ganglioside induced differentiation associated protein 1)", "reagent no.": 1, "mean z-score": 0.92, "z-score, replicate A": 0.79, "z-score, replicate B": 1.09, "z-score, replicate C": 0.88}
